Molecular target: GST-TAB2 protein substrate [GST: P08515]

B1: wild-type NleE (EPEC NleE) (protein)
chain: MINPVTNTQGVSPINTKYAEHVVKNIYPEIKHDYFNESPNIYDKKYISGITRGVAELKQEEFVNEKARRFSYMKTMYSVCPEAFEPISRNEASTPEGSWLTVISGKRPMGQFSVDSLYNPDLHALCELPDICCKIFPKENNDFLYIVVVYRNDSPLGEQRANRFIELYNIKRDIMQELNYELPELKAVKSEMIIAREMGEIFSYMPGEIDSYMKYINNKLSKIE
- methylase activity in the presence of Formula A, B or C (MTase glo assay): NLeE methylase activity was retained in the presence of all three formulations
